Data as given in PubChem BioAssay AID1259414 (Drosophila RNAi Screening Center, 2018).

Test: 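Fly genes that alter Wolbachia amount inside host cells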 (primary screen)
Cells: Drosophila JW18 cells infected with Wolbachia
Reagent: long dsRNA against Drosophila genes, 0.25 µg dsRNA per well of a 384-well plate
Time to read-out: 5 days
Treatment: cells persistently infected with Wolbachia before knock-down; no added drug
Read-out: 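Imaged fluorescence in situ signal for Wolbachia 23S rRNA per DAPI-counted host cell, given as a robust z-score within each plate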
Scale: Wolbachia per cell robust z: higher = more Wolbachia per host cell than the plate typical
Rule for the call: 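Hit when robust z is 1.5 or more, or -1.5 or less, in at least two of three replicates; excludes dsRNAs with several or no targets, genes not expressed in JW18 and well A1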
The deposit covers about 24,000 reagents; below is an unselected part of those that have a named target and a result. Over the whole deposit, about 1,210 (5%) are marked active. 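Inactive calls also include excluded dsRNAs with several or no targets, genes unexpressed in JW18, and well A1, regardless of score.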 A number with no mark means an inactive call. Reagent sequences are not shown.

The first 4 records, to show the layout:
| gene | dsRNA | Wolbachia per cell robust z, rep 1 | Wolbachia per cell robust z, rep 2 | Wolbachia per cell robust z, rep 3 |
| --- | --- | --- | --- | --- |
| CG5065 | DRSC06912 | 0.811 | 0.0721 | 0.85 |
| mldr (mulder) | DRSC18100 | -1.25 | -0.182 | -0.861 |
| mldr (mulder) | DRSC27990 | 2.03 | -0.0115 | 1.44 |
| CG4613 | DRSC10435 | -1.53 | -1.12 | 0.651 |

Main list, from the first entry:
| gene | dsRNA | Wolbachia per cell robust z, rep 1 | Wolbachia per cell robust z, rep 2 | Wolbachia per cell robust z, rep 3 |
| --- | --- | --- | --- | --- |
| CG5065 | DRSC06912 | 0.811 | 0.0721 | 0.85 |
| mldr (mulder) | DRSC18100 | -1.25 | -0.182 | -0.861 |
| mldr (mulder) | DRSC27990 | 2.03 | -0.0115 | 1.44 |
| CG4613 | DRSC10435 | -1.53 | -1.12 | 0.651 |
| CG4613 | DRSC25652 | -1 | 0.17 | 0.764 |
| CG15814 | DRSC19730 | 0.224 | 0.774 | 0.194 |
| eag (ether a go-go) | DRSC19067 | 0.263 | -0.156 | -0.477 |
| eag (ether a go-go) | DRSC20328 | -0.646 | -0.141 | -3.51 |
| eag (ether a go-go) | DRSC28295 | 0.62 | -0.559 | 0.375 |
| CG17122 | DRSC10245 | -0.959 | -3.19 | -0.934 |
| CG17122 | DRSC28648 | 0.475 | 0.819 | 0.873 |
| bgm (bubblegum) | DRSC03495 | 1.65 | 2.57 | 0.205 |
| bgm (bubblegum) | DRSC27103 | -7.37 | -9.05 | 1.25 |
| eca (eclair) | DRSC22290 | 0.128 | 0.44 | 0.153 |
| CG10466 | DRSC02060 | 0.715 | -0.391 | -0.0739 |
| boca | DRSC06408 | -0.006 | 0.857 | -1.16 |
| Picot | DRSC07508 | -2.58 | -0.314 | -1.09 |
| Picot | DRSC24256 | 0.0844 | -1.08 | 0.891 |
| Mlc2 (Myosin light chain 2) | DRSC16741 | 0.02 (active) | -3.41 | -1.75 |
| Mlc2 (Myosin light chain 2) | DRSC28878 | -0.625 | -0.497 | -0.7 |
| CR17024 (pseudo) | DRSC02562 | -0.105 | 0.916 | 0.88 |
| CG3168 | DRSC18287 | 0.774 | 1.09 | 0.773 |
| CG3168 | DRSC25481 | -0.971 | -1.01 | -0.609 |
| Rtnl2 | DRSC12609 | -0.237 | -1.34 | -1.2 |
| Rtnl2 | DRSC21655 | -1.25 | 0.304 | 1.26 |
| Rtnl2 | DRSC26022 | -0.744 | -0.927 | 0.318 |
| CG5070 | DRSC19932 | -0.308 | 0.18 | -0.485 |
| CG5070 | DRSC28082 | 1.03 | 1.59 | 2.04 |
| eIF3k (eukaryotic translation initiation factor 3 subunit k) | DRSC04056 | 2.11 | 0.387 | 1.44 |
| eIF3k (eukaryotic translation initiation factor 3 subunit k) | DRSC27734 | -0.427 | -1.3 | -0.159 |
| Agpat1 (1-Acylglycerol-3-phosphate O-acyltransferase 1) | DRSC19879 | 0.526 | 0.71 | 0.429 |
| Agpat1 (1-Acylglycerol-3-phosphate O-acyltransferase 1) | DRSC19880 | 0.926 | -4.53 | 0.459 |
| CG12538 | DRSC14527 | 0.148 | -0.328 | 0.158 |
| CG12538 | DRSC23603 | -0.374 | -0.573 | 0.0935 |
| CG12674 | DRSC00348 | 0.648 | -0.578 | -0.89 |
| Sod3 (Superoxide dismutase 3) | DRSC07324 | 0.141 | -0.396 | 0.538 |
| Sod3 (Superoxide dismutase 3) | DRSC26222 | 0.172 | 0.0484 | 0.304 |
| YL-1 | DRSC02765 | 0.052 | -1.86 | 0.711 |
| YL-1 | DRSC23798 | -2.09 (active) | -9.22 | -0.883 |
| CG7166 | DRSC11809 | 0.139 | -0.0736 | -7.71 |
| CG11211 | DRSC04851 | 1.23 | 1.52 | 0.252 |
| CG13250 | DRSC11698 | 0.0575 | -0.99 | 0.619 |
| CG13250 | DRSC27753 | 1.12 | -0.0684 | 0.495 |
| chrb (charybde) | DRSC11335 | 0.69 | 0.308 | -0.59 |
| chrb (charybde) | DRSC25273 | 0.081 | 0.00248 | -0.652 |
| CG18528 | DRSC15340 | -4.33 | 0.804 | 0.783 |
| CG12355 | DRSC09381 | 0.631 | -0.921 | -0.0428 |
| CG12355 | DRSC09883 | -5.29 | -0.986 | -0.301 |
| Eglp4 (Entomoglyceroporin 4) | DRSC04438 | -0.882 | -0.663 | -0.772 |
| Eglp4 (Entomoglyceroporin 4) | DRSC25991 | 0.025 | -0.0793 | -0.402 |
| P5CDh1 (delta-1-Pyrroline-5-carboxylate dehydrogenase 1) | DRSC11801 | 0.453 | -1.01 | 0.65 |
| Arf1 (ADP ribosylation factor 1) | DRSC11606 | -1.09 | -0.00322 | -3.8 |
| Atx-1 (Ataxin 1) | DRSC18365 | 0.794 | 0.788 | -1.72 |
| Taf13 (TBP-associated factor 13) | DRSC02106 | 0.581 | -0.0646 | 0.299 |
| TrxT (Thioredoxin T) | DRSC23117 | 0.559 | 0.267 | 0.774 |
| CG8260 | DRSC20098 | 0.157 | 0.626 | -4.49 |
| Vav (Vav guanine nucleotide exchange factor) | DRSC20384 | -5.38 | 0.0132 | 0.477 |
| Vav (Vav guanine nucleotide exchange factor) | DRSC24485 | 0.242 | -1.16 | -2.06 |
| CG8526 | DRSC16438 | -0.37 | -0.776 | -0.862 |
| CG8526 | DRSC26422 | -0.76 | -0.301 | 0.262 |
| AlaRS (Alanyl-tRNA synthetase) | DRSC01851 | -0.915 | 0.734 | 0.601 |
| CG32833 | DRSC04596 | -0.8 | 0.72 | -0.229 |
| lncRNA:CR32773 (long non-coding RNA:CR32773) | DRSC17330 | 0.373 | 1.05 | 0.355 |
| Arc1 (Activity-regulated cytoskeleton associated protein 1) | DRSC06159 | 0.0662 | 1.75 | 1.29 |
| Arc1 (Activity-regulated cytoskeleton associated protein 1) | DRSC28128 | -4.05 | 0.11 | 0.677 |
| CG14079 | DRSC10083 | 0.256 | 0.00158 | -1.69 |
| Spt-I (Serine palmitoyltransferase subunit I) | DRSC06860 | 0.667 | -1.69 | 0.903 |
| Spt-I (Serine palmitoyltransferase subunit I) | DRSC26069 | 0.564 | 0.523 | 0.599 |
